Anti-infective test results gathered from many reports (values: NIAID ChemDB through PubChem).

Common to all: tests in culture; species: Mycobacterium tuberculosis

A number after MIC or MFC names an inhibition level or a share of isolates. Conditions beyond the fields shown may differ between rows. Inhibition is in % at the dose shown (toxicity tests: loss of growth or viability). MIC bound comes from a single tested concentration. An empty or dashed field is not shown. ECn: concentration that inhibits the pathogen or its effect by n%.

SMILES | method | mutations | strain or isolate | conditions | cells | tested at | read-out | result
CC(=O)NC[C@H]1CN(c2ccc(N3CCOCC3)c(F)c2)C(=O)O1 | resazurin | INH resistant | Clinical isolate BRF 26 |  |  |  | MIC | 0.25 µg/mL
O=c1ccc2c(COc3ccc(Cl)cc3Cl)c3ccc(O)cc3oc-2c1 | BACTEC |  | H37Rv |  |  | 12.5 µg/mL | inhibition | -12%
CC[C@@H](CO)NCCN[C@@H](CC)CO |  |  | H37Rv |  |  |  | MIC | 6.25 µg/mL
[C-]#[N+][C@@]1(C)CC[C@H]2[C@H]3[C@H]4C(=CC[C@@H]31)CC(C)(C)C[C@@H]4C[C@@H]2C |  |  | H37Rv |  |  |  | MIC | 8 µg/mL
Cc1cc(=O)n2c(nc3cc(Cl)ccc32)s1 | resazurin |  | H37Rv |  |  | 6.25 µg/mL | inhibition | 32%
CCC(=O)N1CCN(c2ccc(C(C)=O)cc2)CC1 | turbidity |  | BioA overexpression strain |  |  |  | MIC50 | >50 µM
CCOC(=O)Nc1cc(NC(C)CCCN(CC)CC)c2ncc(-c3ccc(Cl)cc3)nc2n1 |  |  | H37Rv |  |  |  | EC50 | <12.5 µg/mL
CCOc1ccc2c(c1)n([O-])c1cc(Cl)ccc1[n+]2=O |  |  | PAS-R |  |  |  | MIC | 3.1 µg/mL
COc1ccccc1NNC(=O)N1CCN(c2nc(N3CCN(c4ccccc4)CC3)c3ccccc3n2)CC1 | BACTEC / fluorescence |  | H37Rv |  |  | 6.25 µg/mL | inhibition | 0%
N=C1SC23CCCN2C(=O)C2(CCCN2C3=O)S1 | resazurin |  | H37Rv |  |  |  | MIC bound | >6.25 µg/mL
CN1Cc2cc(N3CCN(C(=O)c4cccc(Cl)c4)CC3)ccc2C1=O | turbidity |  | BioA overexpression strain |  |  |  | MIC50 | >50 µM
N#Cc1ccc(Sc2nnc(N3CCN(c4nc(N5CCN(c6ccccc6)CC5)c5ccccc5n4)CC3)o2)cc1 | BACTEC / fluorescence |  | H37Rv |  |  |  | MIC | >6.25 µg/mL
NC(=S)c1cnc(C(=O)c2ccccc2O)cn1 | resazurin |  | H37Rv |  |  | 6.25 µg/mL | inhibition | 60%
Cc1c(N)nc([C@H](CC(N)=O)NC[C@@H](N)C(N)=O)nc1C(=O)N[C@H](C(=O)NC(C)C(O)CC(=O)NC(C(=O)NC(OC1OC(C)C(N)C(O)C1O)C(O)c1nc(-c2nc(C(=O)NCCCCN)cs2)cs1)[C@H](C)O)C(OC1OC(CO)C(O)C(O)C1OC1OC(CO)C(O)C(OC(N)=O)C1O)c1cnc[nH]1.Cl.Cl.Cl.Cl |  |  | EMB-R |  |  |  | MIC | 0.1 µg/mL
COC(=O)c1cnc(C(=O)c2ccccc2O)cn1 | resazurin |  | H37Rv |  |  |  | EC50 | <6.25 µg/mL
Cc1nccc2c(C)c3sc4ccccc4c3cc12 | resazurin |  | H37Rv |  | VERO |  | MIC | 1.56 µg/mL
C=C1C[C@H](O)[C@H](Br)C(C)(C)[C@@]12CCC(C)=C(Cl)C2 |  |  | H37Rv |  |  |  | MIC | 32 µg/mL
C[C@@H]1OC(O[C@H]2C(O[C@H]3CC[C@@]4(C)C(CC[C@]5(C)C4CC=C4C6CC(C)(C)CC[C@]6(C(=O)O)CC[C@]45C)[C@]3(C)CO)OC[C@H](O)[C@@H]2O)[C@H](O)[C@H](OO[C@@H]2O[C@H](CO)[C@H](O)[C@H]2O)[C@H]1O |  |  | H37Rv |  |  |  | MIC | >1000 µg/mL
O=C(/C=C/c1ccccc1Cl)c1ccc(F)cc1 | resazurin |  | H37Rv | 7 d |  |  | MIC | 32 µg/mL
C1=NCCN=Cc2ccccc2NCCNc2ccccc21 | resazurin |  | H37Rv |  |  |  | MIC bound | >6.25 µg/mL
NO |  |  | H37Rv |  |  |  | MIC90 | 17.5 µg/mL
CCOC(=O)Nc1cc2[nH]c(-c3ccc(C(F)(F)F)cc3)nc2c(N(CCc2ccccc2)Cc2ccccc2)n1 |  |  | H37Rv |  |  |  | EC50 | <12.5 µg/mL
CO[C@H]1/C=C/O[C@@]2(C)Oc3c(C)c(O)c4c(O)c(c(/C=N/N5CCN(C)CC5)c(O)c4c3C2=O)NC(=O)/C(C)=C\C=C\[C@H](C)[C@H](O)[C@@H](C)[C@@H](O)[C@@H](C)[C@H](OC(C)=O)[C@@H]1C |  |  | 1S |  |  |  | MIC | 1 µg/mL
O=C(O)c1ccc(NNC(=O)N2CCN(c3nc(N4CCN(c5ccccc5)CC4)c4ccccc4n3)CC2)cc1 | agar / visual reading |  | H37Rv |  |  | 100 µg/mL | inhibition | 90%
CC1=Nc2ccccc2S/C1=C(/C)NNS(=O)(=O)c1ccc(C)cc1 | resazurin |  | H37Rv |  |  |  | MIC bound | >6.25 µg/mL
CC(=O)c1ccc(N2CCN(C(=O)c3cccnc3)CC2)cc1 | turbidity |  | Wild type without biotin |  |  |  | MIC50 | >50 µM
COc1ccc(C(=O)/C=C/c2ccccc2Cl)cc1 | MTT |  | H37Rv |  |  |  | MIC | 32 µg/mL
CC1=C[C@@H]2[C@@H](CC1)[C@@](C)(S)CC[C@H]2C(C)C |  |  | H37Rv |  |  |  | MIC | >128 µg/mL
COCCN1CCN(C(=O)c2nc3cc(C(F)(F)F)cc([N+](=O)[O-])c3s2)CC1 | resazurin / absorbance |  | H37Rv |  |  |  | MIC80 | 0.5 µg/mL
CC(C)C[C@@H]1NC(=O)[C@H](Cc2c[nH]c3ccccc23)NC(=O)[C@@H](CCCN)NC(=O)[C@H](CC(N)=O)NC(=O)[C@H](C(C)C)NC(=O)[C@@H](CC(C)C)NC1=O | turbidity |  | HN353 |  |  |  | MIC90 | 2.97 µM
COc1cccc2c1cc1c3c(cc4c(c32)OCO4)C(=O)N1 | resazurin |  | MTY147 |  |  |  | MIC | 12.5 µg/mL
CC(C)C[C@@H]1NC(=O)[C@H](Cc2c[nH]c3ccccc23)NC(=O)[C@@H](CCCCN)NC(=O)[C@H](CC(N)=O)NC(=O)[C@H](C(C)C)NC(=O)[C@@H](CC(C)C)NC1=O | turbidity |  | H37Rv |  |  |  | MIC | 0.99 µM
COc1ccc(C(=O)/C=C/c2ccc(F)cc2)cc1F | MTT |  | H37Rv | 14 d |  |  | MIC | 128 µg/mL
CCOC(=O)Nc1cc2[nH]c(-c3ccc([N+](=O)[O-])cc3)nc2c(N(CCc2ccccc2)Cc2ccccc2)n1 |  |  | H37Rv |  |  |  | EC50 | <12.5 µg/mL
CC(=O)c1ccc(N2CCC(C(=O)c3cccc(Cl)c3)CC2)cc1 | turbidity |  | BioA overexpression strain |  |  |  | MIC90 | >50 µM
Cc1cc(=O)c2c(O)cc3c(c2o1)CC=C(COC1OC(COC2OC(CO)C(O)C(O)C2O)C(O)C(O)C1O)CO3 | BACTEC |  | H37Rv |  |  |  | MIC bound | >12.5 µg/mL
C[C@H]1COc2c(N3CCN(C)CC3)c(F)cc3c(=O)c(C(=O)O)cn1c23 |  |  | 5R |  |  |  | MIC | 0.5 µg/mL
CC(=O)c1ccc(N2CCN(C(=O)c3ccc4c(c3)OCCCO4)CC2)cc1 | turbidity |  | BioA overexpression strain |  |  |  | MIC50 | >50 µM
COC(=O)C1=C(C(=O)OC)P2(C)(C)SC(=S)N2C1(c1ccccc1)c1ccccc1 | BACTEC |  | H37Rv |  |  |  | MIC | ≥12.5 µg/mL
COCCN1CCN(C(=O)c2nc3cc(C(F)(F)F)c(C)c([N+](=O)[O-])c3s2)CC1 | resazurin / absorbance | BTZ-resistant (C387G) | H37Rv |  |  |  | MIC80 | >32 µg/mL
CC1(C)OC(COC(=O)c2ccccc2)C2OC(C)(C)OC(COC(=O)c3ccccc3)C2O1 | BACTEC |  | H37Rv |  |  | 12.5 µg/mL | inhibition | 6%
O=C(/C=C/c1ccc(F)cc1Cl)c1ccc(F)cc1 | resazurin |  | H37Rv | 7 d |  |  | MIC | 16 µg/mL
O=C(O)c1cnc(C(=O)c2ccccc2)cn1 | resazurin |  | H37Rv |  |  |  | EC50 | >6.25 µg/mL
COc1cc2c3c(cc4cc5c(cc4c3c1OC)OCO5)N(C=O)CC2 | resazurin |  | H37RvSr |  |  |  | MIC | >50 µg/mL
O=Cc1ccc(NNC(=O)N2CCN(c3nc(N4CCN(c5ccccc5)CC4)c4ccccc4n3)CC2)cc1 | BACTEC / fluorescence |  | H37Rv |  |  | 6.25 µg/mL | inhibition | 0%
CC(C)C[C@@H]1NC(=O)[C@H](Cc2c[nH]c3ccccc23)NC(=O)[C@H](CCCCN)NC(=O)[C@H](CC(N)=O)NC(=O)[C@H](C(C)C)NC(=O)[C@@H](CC(C)C)NC1=O | turbidity |  | HN878 |  |  |  | MIC90 | >30 µM
CCOC(=O)Nc1cc2[nH]cnc2c(Cl)n1 |  |  | H37Rv |  |  |  | EC50 | >12.5 µg/mL
NC(=O)c1cnc(C(=O)c2ccc(Cl)cc2)cn1 | resazurin |  | H37Rv |  |  | 6.25 µg/mL | inhibition | 16%
O=[N+]([O-])c1cc(C(F)(F)F)cc2nc(C3=NCCO3)sc12 | resazurin / absorbance |  | H37Rv |  |  |  | MIC80 | 2 µg/mL
CCN1CCC(CCOC)(CN2c3ccccc3Sc3ccc(Cl)cc32)C1.Cl | BACTEC |  | H37Rv |  |  | 12.5 µg/mL | inhibition | 98%
C[C@@H]1OC(O[C@H]2C(O[C@H]3CC[C@@]4(C)C(CC[C@]5(C)C4CC=C4C6CC(C)(C)CC[C@]6(C(=O)O[C@@H]6O[C@H](CO[C@@H]7O[C@H](CO)[C@@H](OC8OC[C@H](O)[C@H](O)[C@H]8O)[C@H](O)[C@H]7O)[C@@H](O)[C@H](O)[C@H]6O)CC[C@]45C)[C@]3(C)CO)OC[C@H](O)[C@@H]2O)[C@H](O)[C@H](OO[C@@H]2O[C@H](CO)[C@H](O)[C@H]2O)[C@H]1O |  |  | H37Rv |  |  |  | MIC | >1000 µg/mL
O=C1/C(=C\N2CCN(c3ccccc3)CC2)Cc2c(Cl)cccc21 | resazurin |  | H37Rv |  |  |  | MIC bound | >6.25 µg/mL
CCOC(=O)Nc1cc(NCCC(=O)c2ccccc2)c([N+](=O)[O-])c(N)n1 |  |  | H37Rv |  |  |  | EC50 | >12.5 µg/mL
Cc1c(C(F)(F)F)cc2nc(C3=N[C@H](C(=O)N4CCCC4)CO3)sc2c1[N+](=O)[O-] | resazurin / absorbance |  | H37Rv |  |  |  | MBC | 2 µg/mL
CO[C@H]1/C=C/O[C@@]2(C)Oc3c(C)c(O)c4c(O)c(c(/C=N/N5CCN(C6CCCC6)CC5)c(O)c4c3C2=O)NC(=O)/C(C)=C\C=C\[C@H](C)[C@H](O)[C@@H](C)[C@@H](O)[C@@H](C)[C@H](O)[C@@H]1C |  |  | Erdman |  |  |  | MBC | 0.25 µg/mL
[C-]#[N+][C@@]1(C)C2CC[C@H]3[C@H]4[C@H](CC[C@]3(C)[N+]#[C-])[C@@H](C)C[C@@H](CC1(C)C)[C@H]24 |  |  | H37Rv |  |  |  | MIC | 8 µg/mL
COc1ccc(C(=O)/C=C/c2ccccc2Cl)c(F)c1 | MTT |  | H37Rv | 7 d |  |  | MIC | 32 µg/mL
CC(C)C[C@@H]1NC(=O)[C@H](Cc2c[nH]c3ccccc23)NC(=O)[C@@H](CCCN=C(N)N)NC(=O)[C@H](CC(N)=O)NC(=O)[C@H](C(C)C)NC(=O)[C@@H](CC(C)C)NC1=O | turbidity |  | H37Rv |  |  |  | MIC90 | 2.97 µM
C=C1C[C@H]2OC2[C@]2(CC[C@@H]3C([C@@H](OC(C)=O)[C@H](C=C(C)C)OC(C)=O)=CC[C@H](OC(C)=O)[C@@H]13)CO2 |  |  | H37Rv |  |  |  | MIC | >128 µg/mL
NCCCn1[nH]c(=O)c2ccncc2c1=O | BACTEC |  | H37Rv |  |  |  | MIC bound | >12.5 µg/mL
CC(=O)c1ccc(N2CCN(C(=O)c3cc(Cl)cc(Cl)c3)CC2)cc1 | turbidity |  | Wild type without biotin |  |  |  | MIC50 | >50 µM
NNC(=O)c1ccncc1 | turbidity |  | H37Ra |  |  |  | MIC90 | 0.12 µM
COc1ccc(C2SC(N)=Nc3c2c(C)nn3C(=O)c2ccncc2)cc1OC | BACTEC |  | H37Rv |  |  |  | MIC bound | ≤12.5 µg/mL
NC(=O)c1cnc(C(=O)c2ccccc2)cn1 | resazurin |  | H37Rv |  |  |  | EC50 | >6.25 µg/mL
O=Cc1ccccc1NC1=CC(=O)N(c2ccccc2)C1=O | BACTEC |  | H37Rv |  |  | 12.8 µg/mL | inhibition | 23%
CC1(C)[C@@H](Br)CC[C@]2(C)O[C@H]3COC(=O)C3=C[C@@H](O)[C@@H]12 |  |  | H37Rv |  |  |  | MIC | 128 µg/mL
COc1cc(/C=N/NC(=O)CC(C)O)ccc1O | BACTEC |  | H37Rv |  |  |  | MIC | ≥12.5 µg/mL
O=[N+]([O-])c1cc(C(F)(F)F)cc2ncsc12 | resazurin / absorbance |  | H37Rv |  |  |  | MIC80 | >16 µg/mL
O=C1C(=O)N(c2ccccc2)C(=O)N1CCN1C(=O)C(=O)N(c2ccccc2)C1=O | BACTEC |  | H37Rv |  |  | 12.5 µg/mL | inhibition | -64%
O=[N+]([O-])c1cccc(Sc2nnc(N3CCN(c4nc(N5CCN(c6ccccc6)CC5)c5ccccc5n4)CC3)o2)c1 | agar / visual reading |  | H37Rv |  |  | 25 µg/mL | inhibition | 93%
O=c1c2cncnc2sc2nccn12 | resazurin |  | H37Rv |  |  | 6.25 µg/mL | inhibition | -20%
N#Cc1cnc(C(=O)c2ccccc2)cn1 | resazurin |  | H37Rv |  |  | 6.25 µg/mL | inhibition | 10%
O=C(Nc1cccnc1)c1ccc([N+](=O)[O-])s1 | resazurin |  | H37Rv |  |  | 6.25 µg/mL | inhibition | 101%
CCC[C@@H](OC(C)=O)C1=C(Br)[C@@](CI)(OC)OC1=O |  |  | H37Rv |  |  |  | MIC | >128 µg/mL

Repeating the first 5 entries:

SMILES,method,mutations,strain or isolate,conditions,cells,tested at,read-out,result
CC(=O)NC[C@H]1CN(c2ccc(N3CCOCC3)c(F)c2)C(=O)O1,resazurin,INH resistant,Clinical isolate BRF 26,,,,MIC,0.25 µg/mL
O=c1ccc2c(COc3ccc(Cl)cc3Cl)c3ccc(O)cc3oc-2c1,BACTEC,,H37Rv,,,12.5 µg/mL,inhibition,-12%
CC[C@@H](CO)NCCN[C@@H](CC)CO,,,H37Rv,,,,MIC,6.25 µg/mL
[C-]#[N+][C@@]1(C)CC[C@H]2[C@H]3[C@H]4C(=CC[C@@H]31)CC(C)(C)C[C@@H]4C[C@@H]2C,,,H37Rv,,,,MIC,8 µg/mL
Cc1cc(=O)n2c(nc3cc(Cl)ccc32)s1,resazurin,,H37Rv,,,6.25 µg/mL,inhibition,32%